Assay results reported in patent publication US7604804 (dated 2009).

Assay: general procedure: Fmoc solid-phase peptide synthesis; Fmoc-PAL-PEG-PS resin; HATU (DIPEA)
Settings: oxidative folding step

Substance CD4M9-Cys-Glutathione has an oxidative folding yield of 75%.
